A mixed list of measured activities; the numbers were collected in NIAID ChemDB.

All rows: target-level tests; agent: HIV-1; protein: Reverse transcriptase; endpoint: fold resistance

Conditions beyond the fields shown may differ between rows.

compound	strain	changes	method	value
CCc1ccc(-n2c(Br)nnc2SCC(=O)Nc2ccc(C(=O)NCC(=O)OC)cc2Cl)c2ccccc12	-	RT-Y188L	nucleotide incorporation / radiometric	>1
Cc1cc(C)cc(S(=O)(=O)c2c(C(=O)NCCO)[nH]c3ccc(Cl)cc23)c1	-	RT-K103N	nucleotide incorporation / radiometric	380
O=P(O)(O)OP(=O)(O)O	-	RT-Y115F	nucleotide incorporation / radiometric	1.57
O=C(CSc1nnc(Br)n1-c1ccc(C2CC2)cc1C(F)(F)F)Nc1ccc(C(=O)O)cc1Cl	-	RT-Y181C	nucleotide incorporation / radiometric	>1
CCN1c2ncc(CCOc3ccc(NC(=O)CCC(=O)O)cc3C)cc2C(=O)N(C)c2cccnc21	IIIB	RT-K103N Y181C	nucleotide incorporation / radiometric	>1
CCC(=O)c1ccc(F)c([C@H]2C[C@H]2NC(=O)Nc2ccc(Br)cn2)c1O	IIIB	RT-K103N	-	2.92
CCc1ccc(-n2c(Br)nnc2SCC(=O)Nc2ccc(C(=O)N[C@H](C(=O)OC)C(C)C)cc2Cl)c2ccccc12	-	RT-Y181C	nucleotide incorporation / radiometric	<1
COc1ccc2c(c1)N(C(=O)OC(C)C)[C@@H](CSC)C(=S)N2	-	RT-W229Y	radiometric	1.42
CC(C)[C@H](NC(=O)c1ccc(NC(=O)CSc2nnc(Br)n2-c2ccc(C3CC3)c3ccccc23)c(Cl)c1)C(=O)O	-	RT-Y181C	nucleotide incorporation / radiometric	<1
Cc1occc1C(=S)Nc1ccc(Cl)c(C(=O)OCC2CC2)c1	-	RT-Y181C	nucleotide incorporation / radiometric	>8.33
CC(C)=CCOc1cc(NC(=S)c2ccoc2C)ccc1Cl	-	RT-W229Y	nucleotide incorporation	21.81
CCN1c2ncc(CCOc3cccc4c3CS(=O)(=O)N4CC(=O)O)cc2-c2nccn2-c2c(C)ccnc21	-	RT-K103N Y181C	nucleotide incorporation / radiometric	>1
CCc1ccc(-n2c(Br)nnc2SCC(=O)Nc2ccc(C(=O)NCCO)cc2Cl)c2ccccc12	-	RT-Y188L	nucleotide incorporation / radiometric	>1
CCN1c2ncc(CCOc3ccc(-c4ccc(C(=O)O)cc4)cc3F)cc2C(=O)N(C)c2cccnc21	IIIB	RT-K103N Y181C	nucleotide incorporation / radiometric	>2
Cc1cc(C2CC2)c2ccccc2c1-n1c(Br)nnc1SCC(=O)Nc1ccc(S(N)(=O)=O)cc1Cl	-	RT-Y188L	nucleotide incorporation / radiometric	>1
CCN1c2ncc(CCOc3cccc4c3CNC4=O)cc2C(=O)Nc2c(C)ccnc21	IIIB	RT-K103N Y181C	nucleotide incorporation / radiometric	>2
CCN1c2ncc(CCOc3cccc4c3CCS(=O)(=O)N4)cc2-c2ncc(C)n2-c2cccnc21	-	RT-K103N Y181C	nucleotide incorporation / radiometric	>1
CC[C@H]1C(=O)Nc2ccc(F)cc2N1C(=O)OC(C)C	-	RT-W229Y	radiometric	4.75
Cc1occc1C(=S)Nc1ccc(Cl)c(/C=N/OC(C)(C)C)c1	-	RT-Y181C	nucleotide incorporation / radiometric	2.85
CCN1c2ncc(CCOc3cccc4c3CN(C)C(=O)N4C)cc2-c2ncc(C)n2-c2cccnc21	-	RT-K103N Y181C	nucleotide incorporation / radiometric	>2
O=C(O)CNC(=O)c1ccc(NC(=O)CSc2nnc(Br)n2-c2ccc(C3CC3)c3ccccc23)c(Cl)c1	-	RT-Y188L	nucleotide incorporation / radiometric	>1
CC[C@H](C)[C@H](NC(=O)c1ccc(NC(=O)CSc2nnc(Br)n2-c2ccc(C3CC3)c3ccccc23)c(Cl)c1)C(=O)O	-	RT-Y188L	nucleotide incorporation / radiometric	>1
N#Cc1cccc2c(-n3c(SCC(=O)Nc4ccc(S(N)(=O)=O)cc4Cl)nnc3C(F)F)cccc12	-	RT-Y188L	nucleotide incorporation / radiometric	>1
Nc1nc2c(ncn2[C@H]2CC[C@@H](COP(=O)(O)OP(=O)(O)OP(=O)(O)O)O2)c(=O)[nH]1	-	RT-K65R	-	1
CC(C)=CCN1Cc2cc(Cl)cc3[nH]c(=O)n(c23)C[C@@H]1C	-	RT-L100I	RT activity	155
CCN1c2ncc(CCOc3ccc(-c4ccc(CCC(=O)O)o4)cc3)cc2C(=O)N(C)c2cccnc21	IIIB	RT-K103N Y181C	nucleotide incorporation / radiometric	>2
O=C(CSc1nnc(C(F)F)n1-c1ccc(C2CC2)c2ccccc12)Nc1ccc(C(=O)O)cc1Cl	-	RT-Y188L	nucleotide incorporation / radiometric	>2
CCN1c2ncc(CCc3ccncc3)cc2C(=O)N(C)c2ccc(Cl)nc21	IIIB	RT-K103N	RT activity	0.625
CCc1ccc(-n2c(Br)nnc2SCC(=O)Nc2ccc(C(=O)NCC(=O)O)cc2Cl)c2ccccc12	-	RT-Y188L	nucleotide incorporation / radiometric	>2
CCN1c2ncc(CCOc3ccc4c(c3)CNC(=O)N4C)cc2C(=O)N(C)c2cccnc21	IIIB	RT-K103N Y181C	nucleotide incorporation / radiometric	>2
NCCCCNc1nc(Cc2ccccc2)cc(=O)[nH]1	-	RT-V179D	-	>14.3
Nc1ccn([C@@H]2CS[C@H](COP(=O)(O)OP(=O)(O)OP(=O)(O)O)O2)c(=O)n1	-	RT-K65R	nucleotide incorporation	7.33
O=C1NCC(CCC2(C(F)(F)F)OC(=O)Nc3ccc(Cl)cc32)O1	A17	RT-K103N Y181C	nucleotide incorporation	1
O=C(O)CCNC(=O)c1ccc(NC(=O)CSc2nnc(Br)n2-c2ccc(C3CC3)c3ccccc23)c(Cl)c1	-	RT-Y188L	nucleotide incorporation / radiometric	>2
CCN1c2ncc(CCOc3ccc4on(C)c(=O)c4c3)cc2C(=O)Nc2c(C)cc(F)nc21	IIIB	RT-K103N Y181C	nucleotide incorporation / radiometric	>2
CCN1c2ncc(CCOc3ccc(C(=O)O)c4ccccc34)cc2-c2ncc(C)n2-c2cccnc21	-	RT-K103N Y181C	nucleotide incorporation / radiometric	>2
CCN1c2ncc(CCOc3ccc(-c4cc[n+]([O-])c(C)c4)cc3C)cc2C(=O)N(C)c2cccnc21	IIIB	RT-K103N Y181C	nucleotide incorporation / radiometric	1
CCN1c2ncc(CCOc3cccc4c3CCNC4=O)cc2-c2ncc(C)n2-c2cccnc21	-	RT-K103N Y181C	nucleotide incorporation / radiometric	>2
CCN1c2ncc(CCOc3cccc4c3CNC4=O)cc2C(=O)N(C)c2cccnc21	IIIB	RT-K103N Y181C	nucleotide incorporation / radiometric	>2
CCN1c2ncc(CCOc3cccc4c3COC(=O)N4)cc2-c2ncc(C)n2-c2cccnc21	-	RT-K103N Y181C	nucleotide incorporation / radiometric	>2
CCOC(=O)CN(C)C(=O)c1ccc(NC(=O)CSc2nnc(Br)n2-c2ccc(CC)c3ccccc23)c(Cl)c1	-	RT-Y188L	nucleotide incorporation / radiometric	>2
CCc1cc(NCc2nc3c(C)ccc(C)c3o2)c(=O)[nH]c1C	-	RT-Y181I	nucleotide incorporation	>6000
CCN1c2ncc(CCOc3cccc4c3COC(=O)N4CC(=O)O)cc2C(=O)N(C)c2cccnc21	IIIB	RT-K103N Y181C	nucleotide incorporation / radiometric	>1
NS(=O)(=O)c1ccc(NC(=O)CSc2nnc(Br)n2-c2ccc(C3CC3)c3ccccc23)c(Cl)c1	-	RT-Y188L	nucleotide incorporation / radiometric	>1
CCN1c2ncc(CCOc3ccc(-c4ccc(Cl)c(C(=O)O)c4)cc3C)cc2C(=O)N(C)c2cccnc21	IIIB	RT-K103N Y181C	nucleotide incorporation / radiometric	>1
Cc1cc(C2CC2)cc(C)c1-n1c(Br)nnc1SCC(=O)Nc1ccc(C(=O)O)cc1Cl	-	RT-Y188L	nucleotide incorporation / radiometric	>2
CCN1c2ncc(CCOc3ccc(-c4ccc(CC(=O)O)cc4)cc3C)cc2-c2ncc(C)n2-c2cccnc21	-	RT-K103N Y181C	nucleotide incorporation / radiometric	>1
Cc1ccc(-n2c(SCC(=O)Nc3ccc(S(=O)(=O)NCCC(=O)O)cc3Cl)nnc2C(F)F)c2c1CCCC2	-	RT-Y181C	nucleotide incorporation / radiometric	>2
CCOCn1c(Cc2ccccc2)c(C(C)C)c(=O)[nH]c1=O	-	RT-W229F	radiometric	1.06
Cc1cc(S(N)(=O)=O)ccc1NC(=O)CSc1nnc(Br)n1-c1ccc(C2CC2)c2ccccc12	-	RT-Y188L	nucleotide incorporation / radiometric	>2
CCN1c2ncc(CCOc3cccc4c3ccc[n+]4[O-])cc2C(=O)Nc2c(C)cc(Cl)nc21	-	RT-K103N V108I	nucleotide incorporation / radiometric	8
O=C(CSc1nnc(Br)n1-c1ccc(C2CC2)c2ccccc12)Nc1ccc(C(=O)N[C@@H](Cc2ccc(O)cc2)C(=O)O)cc1Cl	-	RT-Y188L	nucleotide incorporation / radiometric	>1
O=c1cc(Cc2ccccc2)nc(SCCCCO)[nH]1	-	RT-Y181I	-	5.16
COc1ccc2cccc(-n3c(Br)nnc3SCC(=O)Nc3ccc(C(=O)O)cc3Cl)c2c1	-	RT-Y188L	nucleotide incorporation / radiometric	>2
C=CCO/N=C/c1cc(NC(=S)c2ccoc2C)ccc1Cl	-	RT-L100I	nucleotide incorporation / radiometric	>8.33
Cc1cc(S(N)(=O)=O)ccc1NC(=O)CSc1nnc(CF)n1-c1c(C)cc(C)c2ccccc12	-	RT-Y181C	nucleotide incorporation / radiometric	>2
Cc1ccnc2c1NC(=O)c1cc(CCOc3cccc4c3CNC(=O)N4)cnc1N2C1CC1	IIIB	RT-K103N Y181C	nucleotide incorporation / radiometric	>2
Cc1cc(C)c(-n2c(SCC(=O)Nc3ccc(S(N)(=O)=O)cc3Cl)nnc2C(F)(F)F)c2c1CCCC2	-	RT-Y188L	nucleotide incorporation / radiometric	>2
CCN1c2ncc(CCOc3ccc(-c4cc(C(=O)O)ccc4F)cc3C)cc2C(=O)N(C)c2cccnc21	IIIB	RT-K103N Y181C	nucleotide incorporation / radiometric	>1
CCc1ccc(-n2c(Br)nnc2SCC(=O)Nc2ccc(C(=O)N[C@H](C(=O)OC)C(C)C)cc2Cl)c2ccccc12	-	RT-Y181C	nucleotide incorporation / radiometric	<1
COC(=O)NCCCCNc1nc(Cc2ccccc2)c(C)c(=O)[nH]1	-	RT-V106A	-	>43.5
Cc1ccc(-n2c(SCC(=O)Nc3ccc(C(=O)O)cc3Cl)nnc2C(F)F)c2c1CCCC2	-	RT-Y188L	nucleotide incorporation / radiometric	>2
CC(C)=CCN1Cc2cccc3[nH]c(=S)n(c23)C[C@@H]1C	-	RT-Y181I	nucleotide incorporation	125
Nc1nc2c(ncn2[C@H]2CC[C@@H](COP(=O)(O)OP(=O)(O)OP(=O)(O)O)O2)c(=O)[nH]1	-	RT-W229F	radiometric	1.61
Cc1cc(S(N)(=O)=O)ccc1NC(=O)CSc1nnc(CF)n1-c1ccc(C)c2c1CCCC2	-	RT-Y188L	nucleotide incorporation / radiometric	>2

The last 9 rows once more:

compound | strain | changes | method | value
Cc1ccnc2c1NC(=O)c1cc(CCOc3cccc4c3CNC(=O)N4)cnc1N2C1CC1 | IIIB | RT-K103N Y181C | nucleotide incorporation / radiometric | >2
Cc1cc(C)c(-n2c(SCC(=O)Nc3ccc(S(N)(=O)=O)cc3Cl)nnc2C(F)(F)F)c2c1CCCC2 | - | RT-Y188L | nucleotide incorporation / radiometric | >2
CCN1c2ncc(CCOc3ccc(-c4cc(C(=O)O)ccc4F)cc3C)cc2C(=O)N(C)c2cccnc21 | IIIB | RT-K103N Y181C | nucleotide incorporation / radiometric | >1
CCc1ccc(-n2c(Br)nnc2SCC(=O)Nc2ccc(C(=O)N[C@H](C(=O)OC)C(C)C)cc2Cl)c2ccccc12 | - | RT-Y181C | nucleotide incorporation / radiometric | <1
COC(=O)NCCCCNc1nc(Cc2ccccc2)c(C)c(=O)[nH]1 | - | RT-V106A | - | >43.5
Cc1ccc(-n2c(SCC(=O)Nc3ccc(C(=O)O)cc3Cl)nnc2C(F)F)c2c1CCCC2 | - | RT-Y188L | nucleotide incorporation / radiometric | >2
CC(C)=CCN1Cc2cccc3[nH]c(=S)n(c23)C[C@@H]1C | - | RT-Y181I | nucleotide incorporation | 125
Nc1nc2c(ncn2[C@H]2CC[C@@H](COP(=O)(O)OP(=O)(O)OP(=O)(O)O)O2)c(=O)[nH]1 | - | RT-W229F | radiometric | 1.61
Cc1cc(S(N)(=O)=O)ccc1NC(=O)CSc1nnc(CF)n1-c1ccc(C)c2c1CCCC2 | - | RT-Y188L | nucleotide incorporation / radiometric | >2

An empty or dashed field is not shown. Fold resistance: result on the changed form divided by that on wild type.